# The list shows a part of the results, in another mix than the full data. Inconclusive results are not listed. Calls of active or inactive are those of the source. The call rests on the fitted dose curve; tested in A549 cells.
# Test: qHTS for Stage-Specific Inhibitors of Vaccinia Orthopoxvirus: Venus Reporter Primary qHTS; further: nearly all actives have a fitted effect of over 30% in size
# Settings: Vaccinia virus Venus reporter expression, fluorescence; at 36.5 µM (top of the series)
# On the % scale 0 is the no-effect control and ±100 the full control effect.
row,Compound,"activity change, negative = inhibition"
1,CC(C)(C)n1nnnc1C(c1cccc2ccccc12)N1CCC(n2c(=O)[nH]c3ccccc32)CC1 (stereo unspecified),inactive: -12.9%
2,CN(C)C1(CNC(=O)c2cccc(C#N)c2)CCCCC1,inactive: -6.48%
3,O=C(NCC1(N2CCOCC2)CCCCC1)c1ccccc1,inactive: 1.33%
4,Cc1cc(N(CCCl)CCCl)ccc1C=O,inactive: -27.8%
5,O=c1[nH]c2ccccc2n1C1CCN(C(c2ccccc2)c2nnnn2C2CCCC2)CC1 (stereo unspecified),inactive: 1.88%
6,CCCN1CCC(Nc2cc(OC)cc(OC)c2)CC1,inactive: -5.65%
7,c1ccc(CN2CCC(Nc3ccccc3)CC2)cc1,inactive: -4.72%
8,O=C(NCC1(N2CCOCC2)CCCCC1)c1ccccc1[N+](=O)[O-],inactive: -11.5%
9,N#Cc1ccc(C(=O)NCC2(N3CCCCC3)CCCCC2)cc1,inactive: -16.9%
10,CC(C)(C)OC(=O)N1CCC(N(C(=O)c2ccccc2)c2ccc(Cl)cc2)CC1,inactive: -11.7%
11,O=C(NCC1(N2CCOCC2)CCCCC1)c1ccc([N+](=O)[O-])cc1,inactive: 15.5%
12,O=c1[nH]c2ccccc2n1C1CCN(C(c2cccs2)c2nnnn2C2CCCC2)CC1 (stereo unspecified),inactive: -12.3%
13,CCc1cc(C(=O)NCC2(N3CCCCC3)CCCCC2)sc1C,inactive: -0.491%
14,O=C(OC1CN2CCC1CC2)C1c2ccccc2C=Cc2ccccc21 (stereo unspecified),inactive: -14.8%
15,CCCCn1nnnc1C(c1cccc(OC)c1OC)N1CCC(n2c(=O)[nH]c3ccccc32)CC1 (stereo unspecified),inactive: -21.6%
16,CCOC(=O)N1CCC(Nc2ccc(C)cc2)CC1,inactive: -12%
17,COc1cccc(C(c2nnnn2C(C)(C)C)N2CCC(n3c(=O)[nH]c4ccccc43)CC2)c1OC (stereo unspecified),inactive: -5.02%
18,N/C(=N\O)c1c(N)no[n+]1[O-],inactive: 17.9%
19,O=Cc1ccc(N(CCCl)CCCl)cc1,inactive: -13.7%
20,O=c1[nH]c2ccccc2n1C1CCN(C(c2cccs2)c2nnnn2C2CCCCC2)CC1 (stereo unspecified),inactive: -7.65%
21,O=c1[nH]c2ccccc2n1C1CCN(C(c2ccnc3ccccc23)c2nnnn2C2CCCC2)CC1 (stereo unspecified),inactive: -12.7%
22,COc1ccc(C(=O)NCC2(N3CCOCC3)CCCCC2)cc1OC,inactive: -7.6%
23,CCCCn1nnnc1C(c1ccccc1)N1CCC(n2c(=O)[nH]c3ccccc32)CC1 (stereo unspecified),inactive: 0.887%

row,Compound,"activity change, negative = inhibition"
1,COc1cccc(C(=O)N(c2cc(C)cc(C)c2)C2CCN(C(=O)OC(C)(C)C)CC2)c1,inactive: -8.14%
2,COc1cc(OC)cc(C(=O)NCC2(N3CCOCC3)CCCCC2)c1,inactive: 0.206%
3,COc1cccc(C(c2nnnn2C2CCCC2)N2CCC(n3c(=O)[nH]c4ccccc43)CC2)c1OC (stereo unspecified),inactive: -19.6%
4,COc1cc(C(=O)NCC2(N3CCOCC3)CCCCC2)cc(OC)c1OC,inactive: 11.3%
5,CCC(CO)(C(=O)OC1CN2CCC1CC2)c1ccccc1 (stereo unspecified),inactive: -9.58%
6,NN(c1ccccc1)C1CCN(CCc2ccccc2)CC1,inactive: 7.13%
7,ClCCN(CCCl)c1ccc(C=C2C=CC=C2)cc1,inactive: -13.5%
8,CC(C)(C)OC(=O)N1CCC(Nc2ccccc2)CC1,inactive: 0.109%
9,O=c1[nH]c2ccccc2n1C1CCN(C(c2cc3ccccc3o2)c2nnnn2C2CCCC2)CC1 (stereo unspecified),inactive: -20.3%
10,ClCCN(CCCl)c1ccccc1,inactive: -16.7%
11,CN1CCC(Nc2ccc(F)c(Cl)c2)CC1,inactive: -17.4%
12,CCOc1ncccc1C(=O)NCC1(N2CCOCC2)CCCCC1,inactive: 0.18%
13,Cc1ccccc1C(=O)NCC1(N(C)C)CCCCC1,inactive: -6.11%
14,CN(C)c1ccc(C(=O)NCC2(N3CCCCC3)CCCCC2)cc1,inactive: -16.4%
15,Cn1c(=O)[nH]cc(N(CCCl)CCCl)c1=O,inactive: -7.41%
16,CC(C)(C)c1ccc(C(=O)NCC2(N3CCOCC3)CCCCC2)cc1,inactive: -0.715%
17,CCN1CCC(Nc2cccc(F)c2)CC1,inactive: -11.8%
18,COc1ccc(C(c2nnnn2C2CCCCC2)N2CCC(n3c(=O)[nH]c4ccccc43)CC2)cc1 (stereo unspecified),inactive: -11%
19,CC(C)(C)n1nnnc1C(c1ccnc2ccccc12)N1CCC(n2c(=O)[nH]c3ccccc32)CC1 (stereo unspecified),inactive: -9.71%
20,Cc1ccccc1NC1(C#N)CCN(Cc2ccccc2)CC1,inactive: -9.22%
21,Fc1ccccc1NC1CCN(Cc2ccccc2)CC1,inactive: -16.4%
22,Cc1ccc(Nc2c([N+](=O)[O-])cc([N+](=O)[O-])cc2[N+](=O)[O-])cc1,inactive: -25.8%
23,Cc1ccc(C(=O)NCC2(N3CCCCC3)CCCCC2)o1,inactive: -7.26%
